Experiments:
[1] = target: MARK2 (Rattus norvegicus, UniProt O08679); assay: Immunofluorescence of PAO-induced MARK2-mediated tau Ser262 phosphorylation in neurons; assay type: cell-based; conditions: PAO versus untreated controls
[2] = system: kinases that phosphorylate tau at Thr231; assay: Immunofluorescence of tau Thr231 phosphorylation in neurons; assay type: cell-based, rat; conditions: PAO treatment alone

Sequences of proteins named here, by UniProt entry; tags and fusion partners are left off. A change or cut given only in a name is not applied to a line headed by its entry.
UniProt O08679: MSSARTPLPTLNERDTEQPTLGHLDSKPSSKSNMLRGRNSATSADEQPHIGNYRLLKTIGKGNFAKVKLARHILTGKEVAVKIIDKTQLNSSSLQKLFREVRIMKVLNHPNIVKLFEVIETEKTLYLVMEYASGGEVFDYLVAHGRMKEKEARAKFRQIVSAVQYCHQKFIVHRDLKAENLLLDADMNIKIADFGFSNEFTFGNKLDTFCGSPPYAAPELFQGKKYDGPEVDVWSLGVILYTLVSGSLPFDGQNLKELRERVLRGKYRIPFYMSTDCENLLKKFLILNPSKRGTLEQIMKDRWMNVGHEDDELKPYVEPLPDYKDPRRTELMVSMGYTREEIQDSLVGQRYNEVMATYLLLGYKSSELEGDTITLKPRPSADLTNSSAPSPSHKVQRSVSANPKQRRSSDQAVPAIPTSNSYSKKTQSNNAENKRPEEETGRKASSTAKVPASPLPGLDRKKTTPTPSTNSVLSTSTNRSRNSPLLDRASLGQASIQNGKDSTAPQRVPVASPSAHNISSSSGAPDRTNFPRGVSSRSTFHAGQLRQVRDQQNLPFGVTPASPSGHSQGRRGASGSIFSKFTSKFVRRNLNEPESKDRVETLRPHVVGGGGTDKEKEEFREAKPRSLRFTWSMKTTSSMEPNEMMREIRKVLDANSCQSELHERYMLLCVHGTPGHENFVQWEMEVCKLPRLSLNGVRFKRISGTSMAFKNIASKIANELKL

## O=[As]c1ccccc1 (centres unmarked)
[1]
  effect on endogenous tau phosphorylation of Ser262: increased endogenous tau phosphorylation of Ser262 significantly over untreated controls
[2]
  effect on phosphorylation at tau Thr231: completely abolished phosphorylation at tau Thr231

— patent publication US20210147481A1, “PEPTIDE-BASED INHIBITORS OF MARK FAMILY PROTEINS” (Ohio Universtiy, priority 2017, published 2021)
